Data source: PubChem BioAssay AID504761 (Drosophila RNAi Screening Center, 2011)

- Screen: 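Insect host genes that dengue virus relies on to spread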 (primary screen)
- Cells: D.Mel-2 cells from Drosophila
- Knock-down reagent: long dsRNA against Drosophila genes
- Treatment: infection with dengue virus type 2; dose and infection time not stated
- Measurement: 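Per well on two replicate plates, imaging gave the percent of cells positive for viral envelope protein, ranked by infection, and a nuclear count of cells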
- Direction: infection score: higher = more virus-infected cells; cell count: higher = more cells in the well
- Hit rule: 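Very low infection ranking in both replicate wells (chance probability at most 0.065), then a retest showing infection dropped 1.5-fold or more at p below 0.05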
- Calls: active = confirmed: knock-down lowers infection; inactive = not picked or not confirmed
The deposit covers about 22,000 reagents; this is an unselected part of those with a known target gene and a result. In the full data, 116 (0.52%) are marked active. 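Calls depend on retest data that are not deposited; infection was ranked per plate without normalising between plates; the unit of the infection score is not given.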 Raw values are not corrected between plates. A number with no mark means an inactive call. The numbers tell different reagents against one gene apart. Names joined by + are all predicted targets of the reagent. Not given: the amount of reagent, the time to read-out.

| gene | dsRNA no. | infection score, replicate 1 | infection score, replicate 2 | cell count, replicate 1 | cell count, replicate 2 |
| --- | --- | --- | --- | --- | --- |
| CG3942 | 1 | 1.88 | 5.88 | 6720 | 6731 |
| CG3942 | 2 | 15.3 | 2.56 | 5649 | 6300 |
| CG31674 | 1 | 0.93 | 9.31 | 6644 | 5587 |
| CG31674 | 2 | 3.31 | 7.67 | 6712 | 6258 |
| Nthl1 | 1 | 5.42 | 2.88 | 5906 | 6658 |
| Ance-5 | 1 | 13.4 | 31.8 | 6338 | 5348 |
| Ance-5 | 2 | 6.05 | 22.1 | 7042 | 6535 |
| Mon1 | 1 | 14.6 | 9.24 | 6628 | 6767 |
| Mon1 | 2 | 5.32 | 3.68 | 6806 | 6188 |
| CG33096 | 1 | 1.61 | 2.23 | 6224 | 6502 |
| CG33096 | 2 | 3.52 | 7.18 | 6531 | 6277 |
| Sin1 | 1 | 10.1 | 16.2 | 6369 | 6159 |
| Ssrp | 1 | 9.91 | 24.7 | 4359 | 4124 |
| Ssrp | 2 | 17.5 | 24.8 | 5858 | 5820 |
| Rab18 | 1 | 3.34 | 2.6 | 6859 | 7070 |
| Rab18 | 2 | 1.97 | 1.01 | 6049 | 6122 |
| CG17343 | 1 | 1.43 | 22.7 | 6657 | 4018 |
| CG17343 | 2 | 1.29 | 16.9 | 6366 | 3162 |
| CG17343 | 3 | 13.3 | 13.7 | 4655 | 4136 |
| Coprox | 1 | 2.88 | 5.54 | 6052 | 6627 |
| Coprox | 2 | 5.73 | 8.63 | 5464 | 5391 |
| CG34357 | 1 | 1.77 | 0.95 | 6663 | 6704 |
| CG34357 | 2 | 5.29 | 1.29 | 6461 | 6665 |
| CG34357 | 3 | 1.89 | 4.26 | 5879 | 6735 |
| CG34357 | 4 | 4.64 | 35.2 | 5738 | 5253 |
| CG34357 | 5 | 7 | – | 1514 | 392 |

7 successive entries from above, quoted:
| gene | dsRNA no. | infection score, replicate 1 | infection score, replicate 2 | cell count, replicate 1 | cell count, replicate 2 |
| --- | --- | --- | --- | --- | --- |
| Mon1 | 2 | 5.32 | 3.68 | 6806 | 6188 |
| CG33096 | 1 | 1.61 | 2.23 | 6224 | 6502 |
| CG33096 | 2 | 3.52 | 7.18 | 6531 | 6277 |
| Sin1 | 1 | 10.1 | 16.2 | 6369 | 6159 |
| Ssrp | 1 | 9.91 | 24.7 | 4359 | 4124 |
| Ssrp | 2 | 17.5 | 24.8 | 5858 | 5820 |
| Rab18 | 1 | 3.34 | 2.6 | 6859 | 7070 |

Next records:
| gene | dsRNA no. | infection score, replicate 1 | infection score, replicate 2 | cell count, replicate 1 | cell count, replicate 2 |
| --- | --- | --- | --- | --- | --- |
| Adk3 | 1 | 5.17 | 5.23 | 6579 | 6077 |
| Adk3 | 2 | 8.27 | 12.5 | 6119 | 6055 |
| Osi24 | 1 | 10.4 | 2 | 5609 | 3107 |
| FMRFaR | 1 | 0.28 | 3.48 | 6374 | 6173 |
| gdrd | 1 | 2.25 | 0.68 | 5916 | 6943 |
| Galphao | 1 | 5.47 | 6.09 | 6379 | 6614 |
| Galphao | 2 | 10.4 | 9.52 | 6449 | 5945 |
| CG31715 | 1 | 7.2 | 7.48 | 6233 | 2793 |
| Adf1 | 1 | 1.14 | 0.33 | 5981 | 5983 |
| Adf1 | 2 | 22.5 | 21.9 | 5931 | 4452 |
| l(2)k01209 | 1 | 12.2 | 7.03 | 4609 | 5819 |
| l(2)k01209 | 2 | – | 3.73 | 391 | 1660 |
| Prosbeta7 | 1 | 1.08 | 0.73 | 831 | 546 |
| CG4681 | 1 | 2.73 | 3.55 | 6038 | 6962 |
| CG4681 | 2 | 7.01 | 2.88 | 5964 | 5696 |
| CG15891 + CG15892 | 1 | 16.2 | 0.83 | 6516 | 6024 |
| CG15891 + CG15892 | 2 | 22.9 | 7.39 | 5567 | 3911 |
| Cpr64Ab | 1 | 4.57 | 0.89 | 6045 | 5947 |
| Cpr64Ab | 2 | 3.79 | 2.83 | 6126 | 6370 |
| CG5177 | 1 | 2.56 | 1.54 | 6049 | 6709 |
| CG13101 | 1 | 16.5 | 19.4 | 5907 | 6019 |
| CG15784 | 1 | 1.67 | 3.75 | 6151 | 6846 |
| CG15784 | 2 | 9.61 | 9.34 | 6709 | 6658 |
| CG1416 | 1 | 9 | 25.7 | 6433 | 5523 |
| TBC1d7 | 1 | 0.81 | 5.68 | 6170 | 6440 |
| CG30015 | 1 | 3.26 | 7.12 | 5921 | 5377 |
| CG30015 | 2 | 9.37 | 4.53 | 6006 | 6623 |
| CG30015 | 3 | 10.7 | 6.35 | 6810 | 2725 |
| CG17129 | 1 | 14.1 | 2.03 | 6328 | 6549 |
| kraken | 1 | 2.7 | 4.08 | 6820 | 6550 |
| kraken | 2 | 10.5 | 11.9 | 6609 | 6781 |
| Golgin97 | 1 | 5.56 | 11.3 | 6259 | 6559 |
| r + CG13012 | 1 | 0.93 | 7.08 | 6485 | 7016 |
| Ass | 1 | 16.8 | 13.5 | 5558 | 4471 |
| TwdlU | 1 | 0.41 (active) | 1.45 | 6151 | 6568 |
| TwdlU | 2 | – | 16 | 356 | 5055 |
| CG30083 | 1 | 2.31 | 1.44 | 6027 | 5423 |
| Ets96B | 1 | 3.45 | 2.29 | 1711 | 654 |
| Ets96B | 2 | 20.4 | 14.1 | 4976 | 3186 |
| boca | 1 | 13.5 | 2.04 | 2655 | 7140 |
| yip7 | 1 | 2.34 | 4.83 | 6397 | 5793 |
| yip7 | 2 | 0.98 | 3.98 | 6012 | 6082 |
| CG31259 | 1 | 10.5 | 8.72 | 6512 | 6092 |
| CG2278 | 1 | 3.42 | 4.35 | 6934 | 6916 |
| CG3630 | 1 | 2.25 | 19.5 | 6458 | 2660 |
| CG3630 | 2 | 11 | 4.46 | 1805 | 964 |
| CG3663 | 1 | 27.9 | 8.27 | 6314 | 2562 |
| CG3663 | 2 | 5.32 | 18.1 | 7029 | 6205 |
